Pooled drug test results. Numbers come from NIAID ChemDB, via PubChem.

Common to all: whole-cell or culture tests; organism: Candida albicans; read-out: MIC

Blank or dashed fields: not listed here. Conditions beyond the fields shown may differ between rows.

structure	strain	result
CC(C)C(=N)CCC=C1CO[C@@](Cn2cncn2)(c2ccc(F)cc2F)C1	IFO. 1385	6.25 µg/mL
Cc1ncc([N+](=O)[O-])n1CCN1C(=O)/C(=C/c2c(Cl)cccc2Cl)N=C1c1ccccc1		250 µg/mL
Cc1ccc2c(c1)c1nnc(N3CC[N+](C)([O-])CC3)nc1n2C	1208E	>125 µg/mL
Cc1ncc([N+](=O)[O-])n1CCn1c(-c2ccccc2)csc1=Nc1ccc(Cl)cc1		500 µg/mL
C(=C\c1ccccc1)/COC(Cn1ccnc1)c1ccccc1	PR1	>128 µg/mL
CN[C@@H]1[C@H](O[C@@H]2O[C@H](CO)[C@@H](O)[C@H](S(=O)(=O)O)[C@H]2O)[C@@H](O)[C@H](O[C@H]2c3cc(C)c(C(=O)N[C@H](C)C(=O)O)c(O)c3-c3c(cc4c(c3O)C(=O)c3cc(OC)cc(O)c3C4=O)[C@@H]2O)O[C@@H]1C	ATCC 38247	6.3 µg/mL
CN(Cc1cccc2ccccc12)/N=C\C#CC(C)(C)C		>64 µg/mL
CCCCn1nc(-c2ccccc2)n(NC)c1=O	ATCC16231	>250 µg/mL
O=C(/C=C/c1cc(O)ccc1O)c1ccccc1	SDAU3	100 µg/mL
CC(C)C(=N)CCC=C1CO[C@@](Cn2ccnc2)(c2ccc(F)cc2F)C1	IFO. 1385	1.56 µg/mL
N/C(=N\N=C(/Cn1cncn1)c1ccc(Br)cc1)c1ccccn1	Isolate 685	2 µg/mL
CN(Cc1cccc2ccccc12)/N=C\c1ccc(Cl)cc1		>64 µg/mL
Cc1ccc(/C=C2/SC(=O)N(CCn3c([N+](=O)[O-])cnc3C)C2=O)cc1		125 µg/mL
COc1cc(O)c2c(c1)C(=O)c1c(cc3c(c1O)-c1c(cc(C)c(C(=O)NC(C)C(=O)O)c1O)[C@H](OC1OC(C)C(N(C)C)C(OC4OCC(O)C(O)C4O)C1O)[C@H]3O)C2=O	ATCC 32354 (B311)	6.3 µg/mL
O[C@](Cn1cncn1)(Cn1cnc(/C=C/c2ccc(OCC(F)(F)C(F)F)cc2)n1)c1ccc(F)cc1F	Isolate 04-28	0.12 µg/mL
CC(C)C(=N)CCC[C@H]1CO[C@@](Cn2ccnc2)(c2ccc(F)cc2F)C1	CI-2	>100 µg/mL
Cc1ccc2c(c1)c1nnc(N3CCN(C)CC3)nc1n2C	2005E	2 µg/mL
CN(Cc1cccc2ccsc12)/N=C\C=C\c1ccccc1		>64 µg/mL
O=c1[nH]nc(Cc2ccc(Cl)cc2)n1Nc1ccccc1	ATCC16231	>250 µg/mL
CC(C)C(=O)CCC[C@@H]1CO[C@@](Cn2ccnc2)(c2ccc(F)cc2F)C1	B02630	50 µg/mL
COc1ccc(/C=N\N(C)Cc2cccc3ccccc23)cc1		>64 µg/mL
O=C(/C=C/c1ccc(O)cc1O)c1ccccc1	SDAU2	75 µg/mL
CC(C)(C)c1ccc(COC(Cn2ccnc2)c2ccc(Cl)cc2)cc1	CA7	128 µg/mL
Cc1ncc([N+](=O)[O-])n1CCn1c(-c2ccc(CCl)cc2)csc1=Nc1ccccc1		250 µg/mL
CNn1c(-c2ccc(C)cc2)nn(Cc2ccccc2)c1=O	ATCC16231	>250 µg/mL
N/C(=N\N=C(/Cn1cncn1)c1ccccc1)c1ccccn1	Isolate 685	64 µg/mL
CC(=O)OCCn1c(Cc2ccc(C)cc2)n[nH]c1=O	ATCC16231	>250 µg/mL
N/C(=N\N=C(/Cn1ccnc1)c1ccc(Br)s1)c1ccccn1	Isolate 685	0.5 µg/mL
C[C@H]1N(C(=O)c2ccc(C(F)(F)F)cc2)C[C@@H](O)O[C@@]1(Cn1cncn1)c1ccc(F)cc1F	Isolate 5	16 µg/mL
CC(C)(C)c1ccc(COC(Cn2ccnc2)c2ccc(Cl)cc2Cl)cc1	CA7	128 µg/mL
Cc1c(/C(=N\O)c2ccccc2)oc2ccccc12	Clinical isolate	25 µg/mL
Cc1c(O)cccc1C(=O)N[C@@H](CSc1ccccc1)[C@H](O)CN1C[C@H]2CCCC[C@H]2C[C@H]1C(=O)NC(C)(C)C	I132A	64 µg/mL
O/N=C(\c1ccccc1)c1oc2ccc(Cl)cc2c1Cn1ccnc1	NRRL Y-27077	25 µg/mL
CC(C)C(=O)CCC[C@H]1CO[C@@](Cn2cccc2)(c2ccc(F)cc2F)C1	A.10231	>100 µg/mL
Clc1ccc(C(Cn2ccnc2)OC/C=C/c2ccccc2)cc1	CA12	>128 µg/mL
COc1ccc2c(C)c(/C(=N/O)c3ccc(Cl)cc3)oc2c1	NRRL Y-27077	5 µg/mL
c1ccc(-c2ccc(COC(Cn3ccnc3)c3ccccc3)cc2)cc1	CA2	128 µg/mL
Cc1c(/C(=N\O)c2ccc(Cl)cc2)oc2ccccc12	NRRL Y-27077	5 µg/mL
C[C@H]1[C@H](O)[C@@H](C)/C=C/C=C/C=C/C=C/C=C/C=C/C=C/[C@H](O[C@@H]2O[C@H](C)[C@@H](O)[C@H](N)[C@@H]2O)C[C@@H]2O[C@](O)(C[C@@H](O)C[C@@H](O)CC[C@H](O)[C@@H](O)C[C@@H](O)CC(=O)O[C@H]1C)C[C@H](O)[C@H]2C(=O)O	ATCC 64549	0.5 µg/mL
COC1CC2CCC(C)C(O)(O2)C(O)C(O)N2CCCCC2C(=O)OC(C(C)CC2CCC(O)C(OC)C2)CC(=O)C(C)/C=C(\C)C(O)C(OC)C(=O)C(C)CC(C)/C=C/C=C/C=C/1C	TOR1-1/TOR1	>100 µg/mL
N/C(=N\N=C(/Cn1ccnc1)c1ccc(Cl)cc1)c1ccccn1	Isolate 685	0.125 µg/mL
Cc1ncc([N+](=O)[O-])n1CCN1C(=O)S/C(=C/c2ccc(Cl)cc2)C1=O		125 µg/mL
COc1ccc2c(C)c(/C(=N/O)c3ccccc3)oc2c1	NRRL Y-27077	12.5 µg/mL
Cc1ncc([N+](=O)[O-])n1CCN1C(=O)/C(=C/c2ccc(Cl)c(Cl)c2)N=C1c1ccccc1		250 µg/mL
COC1CC2CCC(C)C(O)(O2)C(=O)C(=O)N2CCCCC2C(=O)OC(C(C)CC2CCC(O)C(OC)C2)CC(=O)C(C)/C=C(\C)C(O)[C@@](OC)(N(O)C(=O)OCC(C)C)C(=O)C(C)CC(C)/C=C/C=C/C=C/1C	WILD TYPE	>100 µg/mL